Pooled drug test results. Numbers come from NIAID ChemDB, via PubChem.

Shared fields: whole-cell or culture tests; agent: HIV-1; method: p24; endpoint: EC50

Conditions beyond the fields shown may differ between rows. An empty or dashed field is not shown. ECn: concentration that inhibits the pathogen or its effect by n%.

compound,changes,strain,cells,result
Nc1ccn([C@H]2CC[C@@H](CO)O2)c(=O)n1,,HXB2 WT,PBMC,0.06 µM
CC(C)(C)S(=O)(=O)C[C@@H](Cc1cccc2ccccc12)C(=O)N[C@@H](CC(N)=O)C(=O)N[C@@H](Cc1ccccc1)[C@@H](O)[C@H](O)[C@H](Cc1ccccc1)NC(=O)[C@H](CC(N)=O)NC(=O)[C@H](Cc1cccc2ccccc12)CS(=O)(=O)C(C)(C)C,,D34,PBLC,10 µM
CCOP(=O)(OC[C@H]1O[C@@H](n2cc(C)c(=O)[nH]c2=O)C[C@@H]1N=[N+]=[N-])C(N)=O,,GKV-4046,MT-4,0.0009 µM
C=CCN(C(=O)OCc1ccc([N+](=O)[O-])cc1)C1CCN(CC[C@](C)(CN(C)S(=O)(=O)c2ccccc2)c2ccccc2)CC1,,BaL,PBMC,<0.013 µM
CC1(C)S[C@H]([C@H](NC(=O)Cc2ccccc2)C(=O)NCc2ccccc2)N[C@H]1C(=O)N[C@H](Cc1ccccc1)[C@H](O)CC(=O)NCc1ccccc1,,RF,MT-4,3 µM
COC(=O)[C@H](Cc1c[nH]c2ccccc12)NP(=O)(OC[C@H]1O[C@@H](N2C(=O)NC(=O)C(C)(Br)C2OC)C[C@@H]1N=[N+]=[N-])Oc1ccccc1,,IIIB,PBMC,0.14 µM
CCc1cc(NCc2nc3c(Cl)ccc(Cl)c3o2)c(=O)[nH]c1C,,BaL,Macrophage + Monocytes/macrophages,0.05 µM
CC(C)(C)NC(=O)[C@@H]1CN(Cc2ccccc2)CCN1C[C@@H](O)C[C@@H](Cc1ccccc1)C(=O)N[C@H]1c2ccccc2C[C@H]1O,,IIIB,MT-4,<0.05 µM
Cc1cn([C@H]2C[C@H](N=[N+]=[N-])[C@@H](CO)O2)c(=O)[nH]c1=O,,NL4-3 X5,PBMC,0.009 µM
COc1cc2c(cc1O)[C@@H](Cc1ccc(O)cc1)N(C)CC2,,IIIB,H9,<0.8 µg/mL
CC1(C)Oc2ccc3ccc(=O)oc3c2[C@@H](OC(=O)C23CCC(C)(C(=O)O2)C3(C)C)[C@H]1OC(=O)C12CCC(C)(C(=O)O1)C2(C)C,,,H9,0.000256 µM
COc1c2c(cc3c1-c1c(cc4c(c1OC)OCO4)C(OC(=O)c1ccccc1)[C@H](C)[C@@H](C)C3)OCO2,,IIIB,H9,3.1 µg/mL
COc1cc2c(cc1O)CC[N+](C)(C)[C@@H]2Cc1ccc(O)cc1,,IIIB,H9,20.7 µg/mL
COc1ccc(CN[C@@H](C(=O)N[C@H]2c3ccccc3C[C@H]2O)[C@H](O)[C@H](Cc2ccccc2)NC(=O)[C@@H](NC(=O)OCc2ccccc2)C(C)(C)C)cc1,,IIIB,MT-4,0.058 µM
O=C(O)P(=O)(O)O,,8618 CLADE B CLADE B,PBMC,11 µM
CCOP(=O)(OC[C@@H]1C=C[C@H](n2cc(C)c(=O)[nH]c2=O)O1)C(N)=O,,GKV-4046,MT-4,0.9 µM
CN=C1CN=C(c2ccc[nH]2)c2cc(Cl)ccc2N1,,BaL,Macrophage + Monocytes/macrophages,0.09 µM
Cc1cn([C@H]2C[C@H](N=[N+]=[N-])[C@@H](CO)O2)c(=O)[nH]c1=O,,GKV-4046,MT-4,0.018 µM
CC(C)CN(C[C@@H](O)[C@H](Cc1ccccc1)NC(=O)O[C@@H]1[C@@H]2CCCO[C@@H]2O[C@H]1C)S(=O)(=O)c1ccc(N)cc1,PR-L10I K14R R41K M46I I54V L63P A71V V82A L90M I93L,TM,PBMC,0.24 µM
Cc1cn([C@H]2C[C@H](N=[N+]=[N-])[C@@H](CO)O2)c(=O)[nH]c1=O,,IIIB,C8166,0.02 µg/mL
CC(C)(C)NC(=O)[C@@H]1CN(C(=O)OCc2ccccc2)CCN1C[C@@H](O)C[C@@H](Cc1ccccc1)C(=O)N[C@H]1c2ccccc2C[C@H]1O,,IIIB,MT-4,<0.1 µM
COc1cc2c(cc1OC)[C@@H](Cc1ccc(OC)c(Oc3cc4c(cc3OC)CCN(C)[C@@H]4Cc3ccc(O)cc3)c1)N(C)CC2,,IIIB,H9,<0.8 µg/mL
Cc1cn([C@H]2CC[C@@H](CO)O2)c(=O)[nH]c1=O,,LAV,H9,>100 µM
CC(C)(C)NC(=O)[C@@H]1C[C@@H]2CCCC[C@@H]2CN1C[C@@H](O)[C@H](Cc1ccccc1)NC(=O)[C@H](CC(N)=O)NC(=O)c1ccc2ccccc2n1,,NL4-3 X4,PBMC,0.01 µM
COc1cc(O)c2c(=O)c3c(O)c(-c4c(O)c([C@@H]5O[C@H](CO)[C@@H](O)[C@H](O)[C@H]5O)c(O)c5c(=O)cc(-c6ccc(O)c(O)c6)oc45)cc(O)c3oc2c1,,IIIB,H9,30.9 µg/mL
CC(C)(C)NC(=O)[C@@H]1CCCN1C[C@@H](O)C[C@@H](Cc1ccccc1)C(=O)N[C@H]1c2ccccc2C[C@H]1O,,IIIB,MT-4,<1.5 µM
Cc1cn([C@H]2C[C@H](N=[N+]=[N-])[C@@H](CO)O2)c(=O)[nH]c1=O,,IIIB,H9,0.002 µg/mL
C[C@@H]1C[C@@H]2[C@@H](OC[C@@H]2OC(=O)N[C@@H](Cc2ccccc2)[C@H](O)CN2C[C@H]3CCCC[C@H]3C[C@H]2C(=O)NC(C)(C)C)O1,,IIIB,MT-4,<0.2 µM
C[C@@H]1O[C@H]2OCCC[C@H]2[C@H]1OC(=O)N[C@@H](Cc1ccccc1)[C@H](O)CN1C[C@H]2CCCC[C@H]2C[C@H]1C(=O)NC(C)(C)C,,PR-L63P ERS104pre,PBMC,0.23 µM
Nc1ccn([C@H]2CC[C@@H](CO)O2)c(=O)n1,,LAV,H9,<1 µM
CC1(C)S[C@H]([C@H](NC(=O)Cc2ccccc2)C(=O)NCc2ccccc2)N[C@H]1C(=O)NCCNC(=O)[C@@H]1N[C@@H]([C@H](NC(=O)Cc2ccccc2)C(=O)NCc2ccccc2)SC1(C)C,,IIIB,H9,0.025 µM
CC1(C)S[C@@H]2[C@H](NC(=O)Cc3ccccc3)C(=O)N2[C@H]1C(=O)NCCNC(=O)[C@@H]1N2C(=O)[C@@H](NC(=O)Cc3ccccc3)[C@H]2SC1(C)C,,RF,MT-4,>100 µM
COc1cc2c(cc1OCc1ccccc1)C(Cc1ccc(Br)cc1)N(Cc1ccccc1)CC2,,IIIB,H9,5.3 µg/mL
Cc1cn([C@H]2C[C@H](N=[N+]=[N-])[C@@H](CO)O2)c(=O)[nH]c1=O,RT-L74V,,PBMC,0.003 µM
Nc1ccn([C@H]2CC[C@@H](CO)O2)c(=O)n1,,BaL,Macrophage + Monocytes/macrophages,0.0003 µM
C[C@H]1C[C@@H]2[C@@H](OC[C@@H]2OC(=O)N[C@@H](Cc2ccccc2)[C@H](O)CN2C[C@H]3CCCC[C@H]3C[C@H]2C(=O)NC(C)(C)C)O1,,IIIB,MT-4,<0.2 µM
CC(C)(C)S(=O)(=O)C[C@@H](Cc1cccc2ccccc12)C(=O)N[C@@H](Cc1cnc[nH]1)C(=O)N[C@@H](Cc1ccccc1)[C@@H](O)[C@H](O)[C@H](Cc1ccccc1)NC(=O)[C@H](Cc1cnc[nH]1)NC(=O)[C@H](Cc1cccc2ccccc12)CS(=O)(=O)C(C)(C)C,,D34,PBLC,>10 µM
Cc1cn([C@H]2C[C@H](N=[N+]=[N-])[C@@H](CO)O2)c(=O)[nH]c1=O,,,H9,0.04 µM
CC(C)(C)[C@H](NC(=O)[C@H](Cc1cccc2ccccc12)CS(=O)(=O)C(C)(C)C)C(=O)N[C@@H](Cc1ccccc1)[C@@H](O)[C@H](O)[C@H](Cc1ccccc1)NC(=O)[C@@H](NC(=O)[C@H](Cc1cccc2ccccc12)CS(=O)(=O)C(C)(C)C)C(C)(C)C,,D34,PBLC,0.015 µM
O=C(O)[C@H]1O[C@@H](Oc2c(-c3ccc(O)c(O)c3)oc3cc(O)cc(O)c3c2=O)[C@H](O)[C@@H](O)[C@@H]1O,,IIIB,H9,2 µg/mL
CC(C)CN(C[C@@H](O)[C@H](Cc1ccccc1)NC(=O)O[C@H]1[C@H]2CCCO[C@H]2O[C@@H]1C)S(=O)(=O)c1ccc(N)cc1,PR-L10I K14R R41K M46I I54V L63P A71V V82A L90M I93L,TM,PBMC,0.26 µM
COC(=O)[C@H](Cc1c[nH]c2ccccc12)NP(=O)(OC[C@H]1O[C@@H](N2C(=O)NC(=O)C(C)(Br)C2OC)C[C@@H]1N=[N+]=[N-])Oc1ccc([N+](=O)[O-])cc1,,IIIB,PBMC,0.04 µM
CC(C)(C)NC(=O)[C@@H]1C[C@@H]2CCCC[C@@H]2CN1C[C@@H](O)[C@H](Cc1ccccc1)NC(=O)O[C@H]1CO[C@H]2OCC[C@H]21,,IIIB,MT-4,<0.046 µM
CN=C(NC#N)NCCSCc1nc[nH]c1C,,IIIB,MT-4,0.0466 µM
O=C(O)P(=O)(O)O,,BaL,Macrophage + Monocytes/macrophages,5.82 µM
CC(C)(C)NC(=O)[C@@H]1CN(C(=O)c2cc3ccccc3oc2=O)CCN1C[C@@H](O)C[C@@H](Cc1ccccc1)C(=O)N[C@H]1c2ccccc2C[C@H]1O,,IIIB,MT-4,<0.05 µM

Repeating the first 4 entries:

compound	changes	strain	cells	result
Nc1ccn([C@H]2CC[C@@H](CO)O2)c(=O)n1		HXB2 WT	PBMC	0.06 µM
CC(C)(C)S(=O)(=O)C[C@@H](Cc1cccc2ccccc12)C(=O)N[C@@H](CC(N)=O)C(=O)N[C@@H](Cc1ccccc1)[C@@H](O)[C@H](O)[C@H](Cc1ccccc1)NC(=O)[C@H](CC(N)=O)NC(=O)[C@H](Cc1cccc2ccccc12)CS(=O)(=O)C(C)(C)C		D34	PBLC	10 µM
CCOP(=O)(OC[C@H]1O[C@@H](n2cc(C)c(=O)[nH]c2=O)C[C@@H]1N=[N+]=[N-])C(N)=O		GKV-4046	MT-4	0.0009 µM
C=CCN(C(=O)OCc1ccc([N+](=O)[O-])cc1)C1CCN(CC[C@](C)(CN(C)S(=O)(=O)c2ccccc2)c2ccccc2)CC1		BaL	PBMC	<0.013 µM